{"source": "PubChem BioAssay AID504761, Drosophila RNAi Screening Center – 2011", "screen": "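Fly genes whose silencing reduces dengue virus type 2 infection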 (primary screen)", "cell system": "D.Mel-2 cells from Drosophila", "knock-down reagent": "long dsRNA against Drosophila genes", "conditions": "infection with dengue virus type 2; dose and infection time not stated", "detection": "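Cells stained for dengue envelope protein and imaged; percent of infected cells per well on duplicate plates, ranked by infection, with stained nuclei counted for cell number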", "scale": "infection score: higher = more virus-infected cells; cell count: higher = more cells in the well", "hit rule": "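Very low infection ranking in both replicate wells (chance probability at most 0.065), then a retest showing infection dropped 1.5-fold or more at p below 0.05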", "calls": "active = confirmed: knock-down lowers infection; inactive = not picked or not confirmed", "note": "The screen tested about 22,000 reagents; this is an unselected part of those that have a named target and a result. Over the whole deposit, 116 (0.52%) got an active call. 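Calls depend on retest data that are not deposited; infection was ranked per plate without normalising between plates; the unit of the infection score is not given.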 Raw values are not corrected between plates. Entries without a mark were called inactive. A plus sign joins genes that one reagent is predicted to hit. Further read-outs or replicates are left out here. Reagent sequences are not shown. Not given: the amount of reagent, the time to read-out."}
{"gene": "Trm1", "DRSC id": "DRSC02951", "infection score, replicate 1": 8.83, "cell count, replicate 1": 6555}
{"gene": "CG12009", "DRSC id": "DRSC08217", "infection score, replicate 1": 6.45, "cell count, replicate 1": 6605}
{"gene": "CG12009", "DRSC id": "DRSC26937", "infection score, replicate 1": 4.88, "cell count, replicate 1": 6169}
{"gene": "CG6118", "DRSC id": "DRSC23197", "infection score, replicate 1": 0.94, "cell count, replicate 1": 6147}
{"gene": "CG6118", "DRSC id": "DRSC29922", "infection score, replicate 1": 10.8, "cell count, replicate 1": 6382}
{"gene": "Octalpha2R", "DRSC id": "DRSC13319", "infection score, replicate 1": 9.39, "cell count, replicate 1": 6251}
{"gene": "Octalpha2R", "DRSC id": "DRSC15314", "infection score, replicate 1": 0.76, "cell count, replicate 1": 6073}
{"gene": "CG30095", "DRSC id": "DRSC07175", "infection score, replicate 1": 13.9, "cell count, replicate 1": 5977}
{"gene": "CG1492", "DRSC id": "DRSC19605", "infection score, replicate 1": 10.1, "cell count, replicate 1": 5937}
{"gene": "CG12546 + CG14452", "DRSC id": "DRSC11709", "infection score, replicate 1": 3.59, "cell count, replicate 1": 6817}
{"gene": "CG12546 + CG14452", "DRSC id": "DRSC29979", "infection score, replicate 1": 14.8, "cell count, replicate 1": 6212}
{"gene": "Arpc2", "DRSC id": "DRSC02113", "infection score, replicate 1": 4.73, "cell count, replicate 1": 6535}
{"gene": "Trxr1", "DRSC id": "DRSC18668", "infection score, replicate 1": 4.53, "cell count, replicate 1": 5956}
{"gene": "Trxr1", "DRSC id": "DRSC22293", "infection score, replicate 1": 4.28, "cell count, replicate 1": 5814}
{"gene": "Trxr1", "DRSC id": "DRSC25749", "infection score, replicate 1": 7.5, "cell count, replicate 1": 5759}
{"gene": "CG13484", "DRSC id": "DRSC10026", "infection score, replicate 1": 0.82, "cell count, replicate 1": 6080}
{"gene": "CG13484", "DRSC id": "DRSC26663", "infection score, replicate 1": 1.47, "cell count, replicate 1": 5842}
{"gene": "Pal1 + Pdrg1", "DRSC id": "DRSC06587", "infection score, replicate 1": 6.77, "cell count, replicate 1": 6990}
{"gene": "CG17562", "DRSC id": "DRSC15243", "infection score, replicate 1": 1.98, "cell count, replicate 1": 6456}
{"gene": "SrpRbeta", "DRSC id": "DRSC21668", "infection score, replicate 1": 0.62, "cell count, replicate 1": 6138}
{"gene": "SrpRbeta", "DRSC id": "DRSC27853", "infection score, replicate 1": 2.98, "cell count, replicate 1": 5833}

Not a retest: an excerpt of the list.
{"gene": "Arpc2", "DRSC id": "DRSC02113", "infection score, replicate 1": 4.73, "cell count, replicate 1": 6535}
{"gene": "Trxr1", "DRSC id": "DRSC18668", "infection score, replicate 1": 4.53, "cell count, replicate 1": 5956}
{"gene": "Trxr1", "DRSC id": "DRSC22293", "infection score, replicate 1": 4.28, "cell count, replicate 1": 5814}
